Reference: PubChem BioAssay AID504761 (Drosophila RNAi Screening Center, 2011)

Test: 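Genome-wide fly cell screen for genes dengue virus requires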 (primary screen)
Cells: D.Mel-2 cells from Drosophila
Reagent: long dsRNA against Drosophila genes
Treatment: infection with dengue virus type 2; dose and infection time not stated
Detection: 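Cells stained for dengue envelope protein and imaged; percent of infected cells per well on duplicate plates, ranked by infection, with stained nuclei counted for cell number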
Direction: infection score: higher = more virus-infected cells; cell count: higher = more cells in the well
Rule for the call: 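Low infection ranks in the two replicates (chance level up to 0.065) followed by a retest with a 1.5-fold or larger significant decrease, p below 0.05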
Meaning of the calls: active = confirmed: knock-down lowers infection; inactive = not picked or not confirmed
The deposit covers about 22,000 reagents; this is a random part of those that have a named target and a result. Of all reagents, 116 (0.52%) got an active call. 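Calls depend on retest data that are not deposited; infection was ranked per plate without normalising between plates; the unit of the infection score is not given.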 Raw values vary from plate to plate and are shown uncorrected. A number with no mark means an inactive call. The record does not give: the amount of reagent, the time to read-out.

predicted target | DRSC id | infection score, replicate 1 | infection score, replicate 2 | cell count, replicate 1 | cell count, replicate 2
CG32537 | DRSC20073 | 22.6 | 8.22 | 6588 | 6556
CG32537 | DRSC23589 | 11.9 | 7.69 | 6337 | 6255
Argk1 | DRSC09668 | 1.84 | 6.71 | 5613 | 6169
Argk1 | DRSC10460 | 15.6 | 21.1 | 5345 | 2630
Argk1 | DRSC21558 | 3.95 | 7.77 | 6171 | 6434
Argk1 | DRSC22665 | 3.73 | 5.04 | 6779 | 6845
Nadsyn | DRSC20222 | 2.97 | 2.73 | 6626 | 7004
CG11437 | DRSC11659 | 6.04 | 5.26 | 6690 | 6961
CG13982 | DRSC02314 | 3.61 | 1.89 | 5894 | 5834
Hipk | DRSC07885 | 5.77 | 2.07 | 6150 | 6041
Hipk | DRSC23155 | 1.81 | 6.72 | 6723 | 6506
tsr | DRSC04718 | 8.76 | – | 1244 | 443
nvd | DRSC22139 | 2.24 | 3.65 | 6216 | 6679
nvd | DRSC26328 | 2.3 | 1.27 | 6787 | 6146
Dhc64C | DRSC08656 | 3.4 | 5.63 | 6058 | 6218
Dhc64C | DRSC25497 | 3.96 | 5.07 | 4244 | 4892
Dpy-30L1 | DRSC02959 | 2.9 | 3.26 | 6406 | 6405
Dpy-30L1 | DRSC25189 | 14.2 | 7.59 | 5446 | 6328
Ccz1 | DRSC08439 | 1.38 | 1.13 | 6689 | 5775
ppk14 | DRSC03238 | 2.92 | 1.63 | 6542 | 6120
CG30075 | DRSC05484 | 1.66 | 2.43 | 6068 | 6092
Sox21a | DRSC10819 | 1.25 | 2.78 | 5981 | 6262
Sox21a | DRSC25435 | 4.68 | 4.96 | 6558 | 6468
TfIIA-L | DRSC16882 | 3.98 | 6.67 | 327 | 5805
Nep3 | DRSC20685 | 0.69 | 0.91 | 6258 | 6021
Nep3 | DRSC29285 | 11 | 21.4 | 3108 | 5876
Pu | DRSC04645 | 2.14 (active) | 4.35 | 6408 | 5914
Pu | DRSC29066 | 10 | 19.8 | 4316 | 6029
beat-Vb | DRSC12940 | 8.89 | 0.93 | 5533 | 5498
beat-Vb | DRSC14844 | 13.4 | 2.5 | 6230 | 6602
beat-Vb | DRSC14845 | 2.47 | 3.25 | 6393 | 6428
MAGE | DRSC12504 | 5.95 | 12.6 | 6420 | 6124
CG32572 | DRSC19525 | 16.9 | 4.71 | 6117 | 6902
CG32572 | DRSC19526 | 13.2 | 9.89 | 6391 | 6673
CG32572 | DRSC30085 | 5.16 | 12.9 | 6741 | 6083
CG14005 | DRSC02337 | 4.15 | 5.62 | 6263 | 6372
CG11786 | DRSC14389 | 1.13 | 12.3 | 6529 | 5576
AIMP3 | DRSC04500 | 6.42 | 7.52 | 6469 | 6997
AIMP3 | DRSC26724 | 4.81 | 3.2 | 6212 | 6412

3 entries from above, set out differently.
predicted target,DRSC id,"infection score, replicate 1","infection score, replicate 2","cell count, replicate 1","cell count, replicate 2"
Nadsyn,DRSC20222,2.97,2.73,6626,7004
CG11437,DRSC11659,6.04,5.26,6690,6961
CG13982,DRSC02314,3.61,1.89,5894,5834
